Compound potency records, mixed from different reports. Data source: NIAID ChemDB in PubChem.

Shared fields: whole-cell or culture tests; species: Mycobacterium tuberculosis

Two numbers with a dash give a range or band. ECn: concentration that inhibits the pathogen or its effect by n%. Blank or dashed fields: not listed here. A number after MIC or MFC names an inhibition level or a share of isolates. Inhibition is in % at the dose shown (toxicity tests: loss of growth or viability). Lines come from different laboratories, so protocols vary. MIC bound: limit read from a one-dose screen. For "inactive" no cut-off is given.

smiles | method | changes | cell line | tested at | strain | endpoint | value
CCOC(=O)NC(=S)[S][Sb]([S]C(=S)NC(=O)OCC)[S]C(=S)Nc1ccc(S(=O)(=O)Nc2ccc(N=Nc3ccccc3)cc2)cc1 | BACTEC | - | - | 128 µg/mL | H37Rv | inhibition | 100%
CC1COc2c(N3CCN(C)CC3)c(F)cc3c(=O)c(C(=O)O)cn1c23 | - | - | - | - | H37Rv | MIC | 1 µg/mL
N/C(=N\N=C\c1ccccc1Cl)c1ccncc1 | - | - | - | - | H37Rv | MIC | 8 µg/mL
C[C@@H](O)[C@H]1C(=O)N2C(C(=O)O)=C(SCCN=CN)C[C@H]12 | resazurin | - | - | - | H37Rv | MIC | 4 µg/mL
COc1nc2ccc(Br)cc2cc1[C@@H](c1ccccc1)[C@@](O)(CCN(C)C)c1cccc2ccccc12 | resazurin | - | - | - | clinical isolate MAL010077 | MIC90 | 0.03125 µg/mL
COc1c(C)c(O)cc2c1Oc1ccc(CC=C(C)C)c(O)c1C=C2 | - | - | - | - | H37Ra | MIC | 12.5 µg/mL
CC1COc2c(N3CCN(C)CC3)c(F)cc3c(=O)c(C(=O)O)cn1c23 | - | - | - | - | - | MBC | 1–2 µg/mL
N/C(=N\N=C\c1cccc(Br)c1)c1ccncc1 | - | - | - | - | H37Rv | MIC | 16 µg/mL
O=c1[nH]c2c(Cl)c(Cl)ccc2c(O)c1N=Nc1ccc([N+](=O)[O-])cc1 | resazurin | - | - | 6.25 µg/mL | H37Rv | inhibition | 89%
C[C@H]1COc2c(N3CCN(C)CC3)c(F)cc3c(=O)c(C(=O)O)cn1c23 | - | - | - | - | ATCC 35830 | MBC | 2 µg/mL
O=C1NC(NNC(=O)c2ccncc2)=N/C1=C\c1ccccc1Cl | - | - | - | - | Ethambutol-resistant | MIC | ≤1.56 µg/mL
NNC(=O)c1ccncc1 | broth dilution | Bedaquiline-resistant A63P | - | - | - | MIC80 | 0.2 µM
NNC(=O)c1ccncc1 | resazurin | - | - | - | H37Rv | MIC | 0.06 µg/mL
CO[C@H]1/C=C/O[C@@]2(C)Oc3c(C)c(O)c4c(O)c(c(/C=N/N5CCN(C)CC5)c(O)c4c3C2=O)NC(=O)/C(C)=C\C=C\[C@H](C)[C@H](O)[C@@H](C)[C@@H](O)[C@@H](C)[C@H](OC(C)=O)[C@@H]1C | - | - | - | - | KZN494 | MIC | >100 µM
CC(=O)Nc1ccc(/C=N/NC(N)=S)cc1 | - | - | - | - | H37Rv | MIC | 0.156 µg/mL
COC(=O)C(CO)NC(=O)CNC(=O)OCc1ccccc1 | BACTEC | - | - | - | H37Rv | MIC | ≥12.8 µg/mL
Cc1ccc(C)c(/C=N/N=C(\N)c2ccncc2)c1 | - | - | - | - | 1054 | MIC | 128 µg/mL
COc1cc(C(=O)NNC(C)C)cc(OC)c1OC | BACTEC | - | - | - | H37Rv | MIC bound | >12.5 µg/mL
N/C(=N\N=C\c1ccc(Cl)c([N+](=O)[O-])c1)c1ccncc1 | - | - | - | - | 1481 | MIC | 256 µg/mL
CC1CN(c2cc3c(cc2F)c(=O)c(C(=O)O)cn3-c2ccc(F)cc2F)CCN1 | - | - | - | - | ATCC 35820 | MBC | 1 µg/mL
O=[N+]([O-])c1ccccc1S(=O)(=O)c1ccccc1[N+](=O)[O-] | BACTEC | - | - | 12.5 µg/mL | H37Rv | inhibition | 0%
O=c1[nH]c2cc(F)c(F)cc2nc1CBr | - | - | - | - | - | EC50 | >12.5 µg/mL
CC[C@H]1OC(=O)[C@H](C)[C@@H](O[C@H]2C[C@@](C)(OC)[C@@H](O)[C@H](C)O2)[C@H](C)[C@@H](O[C@@H]2O[C@H](C)C[C@H](N(C)C)[C@H]2O)[C@](C)(O)C[C@@H](C)CN(C)[C@H](C)[C@@H](O)[C@]1(C)O | - | - | - | - | ATCC 35828 | MBC | >8 µg/mL
O=C(O)c1cc(C(F)(F)F)cc2c(=O)nc(N3CCN(CCCCOc4ccccc4)CC3)sc12 | resazurin | - | - | - | H37Rv | MIC | 0.0015 µg/mL
O=c1[nH]c2cc([N+](=O)[O-])ccc2nc1CBr | - | - | - | 12.5 µg/mL | - | inhibition | 15%
CC(=O)n1cc(/C=C2\N=C(c3ccccc3)OC2=O)c2ccccc21 | BACTEC | - | - | - | H37Rv | MIC bound | >6.25 µg/mL
CC[C@H]1OC(=O)[C@H](C)[C@@H](OC2C[C@@](C)(O)C(O)[C@H](C)O2)[C@H](C)[C@@H](OC2OC(C)C[C@H](N(C)C)C2O)[C@](C)(OC2CC(N(C)C)C(O)C(C)O2)C[C@@H](C)C(=O)[C@H](C)[C@@H](O)[C@]1(C)O | resazurin | - | - | - | H37Rv | MIC | >128 µg/mL
C[C@H]1COC2(CCN(c3nc(=O)c4cc(C(F)(F)F)cc(C(=O)O)c4s3)CC2)O1 | resazurin | - | - | - | NTB1 | MIC99 | 25 µg/mL
Cc1ccc(/C=N/N=C(\N)c2ccncc2)c(C)c1 | - | - | - | - | 1481 | MIC | 4 µg/mL
C[C@@H]1CN(c2c(F)c(N)c3c(=O)c(C(=O)O)cn(C4CC4)c3c2F)C[C@H](C)N1 | - | - | - | - | - | MIC90 | 0.5 µg/mL
CN(C)N1C(=O)C(C(=O)Nc2cccc3ccccc23)SC1=S | resazurin | - | - | - | H37Rv | MIC bound | >6.25 µg/mL
O=C(NCCCC1CCCCC1)c1cn2ccc(Cl)cc2n1 | resazurin | - | - | - | H37Rv | MIC90 | >200 µM
NC(=O)c1cnccn1 | - | - | - | - | TB189 | MIC | <25 µg/mL
N/C(=N\N=C\c1ccc(Br)cc1)c1ccncc1 | - | - | - | - | 1342 | MIC | 32 µg/mL
O=c1[nH]c2ccc(Cl)cc2c(O)c1N=Nc1ccccc1[N+](=O)[O-] | resazurin | - | - | - | H37Rv | MIC | <6.25 µg/mL
O=C(O)/C=C/C(=O)NNc1ccc(Cl)cc1Cl | BACTEC | - | - | 12.5 µg/mL | H37Rv | inhibition | 20%
CO/N=C(\C(=O)N[C@@H]1C(=O)N2C(C(=O)O)=C(COC(C)=O)CS[C@H]12)c1csc(N)n1 | resazurin | - | - | - | H37Rv | MBC | 2 µg/mL
Cc1ccc(/C=N/N=C(\N)c2ccncc2)cc1 | - | - | - | - | 1054 | MIC | 8 µg/mL
N/C(=N\N=C\c1ccccc1)c1ccncc1 | - | - | - | - | Isolate 1751 ofloxacin-resistant | MIC | 64 µg/mL
CN1CCN(c2nc(=O)c3cc(C(F)(F)F)cc(C(=O)O)c3s2)CC1 | resazurin | - | - | - | H37Rv | MIC | 0.25 µg/mL
COc1ccc(C[C@H]2c3cc(OC)c(OC)cc3CCN2C)cc1OC | BACTEC | - | - | - | H37Rv | MIC | ≥128 µg/mL
CC(=O)NC[C@H]1CN(c2ccc(N3CCOCC3)c(F)c2)C(=O)O1 | - | - | - | - | RM22 | MIC | 0.125 µg/mL
O=C(NC1CCCCCCC1)c1cn2ccc(Cl)cc2n1 | resazurin | - | - | - | H37Rv | MIC90 | >209 µM
NNC(=O)c1cc(I)c(N)c(I)c1 | BACTEC | - | - | - | H37Rv | MIC bound | >12.5 µg/mL
COc1ccccc1/C=N/N=C(\N)c1ccncc1 | - | - | - | - | Isolate 1751 ofloxacin-resistant | MIC | 64 µg/mL
NC(=S)c1nnn(Cc2ccccc2)c1N | resazurin | - | - | - | mc4914 InhA overexpressing | MIC | 125 µM
Nc1cn(COCCO)c(=O)[nH]c1=O | - | - | - | - | H37Ra | EC50 | >100 µg/mL
S=C(S)N1CCN(c2cccc(Cl)c2)CC1 | resazurin | - | - | - | H37Rv | MIC bound | >6.25 µg/mL
Cc1nc2cc(Cl)ccn2c1C(=O)NC1CCCCCCC1 | resazurin | - | - | - | H37Rv | MIC90 | >200 µM
CC1COc2c(N3CCN(C)CC3)c(F)cc3c(=O)c(C(=O)O)cn1c23 | broth dilution | Isoniazid-resistant | - | - | 35822 | MIC80 | 0.7 µM
COc1cc2cc3c4cc(OC)c(OC)cc4cc[n+]3c(CCC(=O)O)c2cc1OC.O=C(O)CC(C(=O)O)S(=O)(=O)O | BACTEC | - | - | 12.5 µg/mL | H37Rv | inhibition | -20%
COC(=O)c1ccc(O)c(O)c1 | resazurin | - | - | 6.25 µg/mL | ATCC 27294 | inhibition | 24%
N[C@@H]1CONC1=O | - | - | - | - | RM22 | MIC | 30 µg/mL
[N-]=[N+]=NC(CCl)c1cn(COCCO)c(=O)[nH]c1=O | - | - | - | 10 µg/mL | H37Ra | inhibition | 25%
CCn1cc(C(=O)O)c(=O)c2cc(F)c(N3CCNC(C)C3)c(F)c21 | - | - | - | - | - | MIC | 0.5–2 µg/mL
CNC(=S)N/N=C(\C)c1ccccn1 | resazurin | - | - | - | H37Rv (ATCC 27294) | MIC | 7.8 µg/mL
CC1(C)S[C@@H]2[C@H](NC(=O)Cc3ccccc3)C(=O)N2[C@H]1C(=O)O | resazurin | - | - | - | H37Rv | MIC | 256 µg/mL
CC(=O)NC[C@H]1CN(c2ccc(N3CCN(Cc4ccc([N+](=O)[O-])o4)CC3)c(F)c2)C(=O)O1 | - | - | - | - | 16 isolates (MDR) | Geometric mean MIC | 4 µg/mL
OCCN(CCO)C(=S)S | BACTEC | - | - | - | H37Rv | MIC | ≥12.5 µg/mL
O=C1NC(NNC(=O)c2ccncc2)=N/C1=C\c1cccc(Cl)c1 | resazurin | - | VERO | 12.5 µg/mL | H37Rv | inhibition | 99%
CCN(C(=S)S)c1ccccc1 | BACTEC | - | - | - | H37Rv | MIC bound | >12.5 µg/mL
Cc1cn(COCCO)c(=O)[nH]c1=O | - | - | - | - | H37Ra | EC50 | >100 µg/mL
O=C1NC(NNC(=O)c2ccncc2)=N/C1=C\c1ccc(Cl)cc1 | - | - | - | - | Ciprofloxacin-resistant | MIC | 3.13 µg/mL
N/C(=N\N=C\c1ccc(Cl)cc1)c1ccncc1 | - | - | - | - | 1342 | MIC | 32 µg/mL
C[C@@H]1Cn2cc(C(=O)O)c(=O)c3cc(F)c(N4CCN(/C(N)=N/C(N)=NCCCCCCN=C(N)/N=C(\N)N5CCN(c6c(F)cc7c(=O)c(C(=O)O)cn8c7c6O[C@@H](C)C8)CC5)CC4)c(c32)O1 | broth dilution | - | - | - | ATCC35821 | MIC | 2.5 µg/mL
NC1CCN(c2c(F)cc3c(=O)c(C(=O)O)cn(C4CC4)c3c2Cl)C1 | - | - | - | - | H37Rv | MIC | 0.06 µg/mL
O=C(O)c1ccc(CO)cc1 | resazurin | - | - | 6.25 µg/mL | ATCC 27294 | inhibition | 22%
O=NNc1ccc(Cl)cn1 | BACTEC | - | - | 12.5 µg/mL | H37Rv | inhibition | 52%
O=S(=O)([O-])[O-].[O]=[V+2] | resazurin | - | - | - | H37Rv (ATCC 27294) | MIC | >50 µg/mL
CO[C@H]1/C=C/O[C@@]2(C)Oc3c(C)c(O)c4c(O)c(c5c(c4c3C2=O)NC2(CCN(CC(C)C)CC2)N=5)=NC(=O)/C(C)=C\C=C\[C@H](C)[C@H](O)[C@@H](C)[C@@H](O)[C@@H](C)[C@H](OC(C)=O)[C@@H]1C | - | - | - | - | H37Rv | MIC | ≤0.125 µg/mL
COc1nc2ccc(Br)cc2cc1[C@@H](c1ccccc1)[C@@](O)(CCN(C)C)c1cccc2ccccc12 | broth dilution | Bedaquiline-resistant I66M | - | - | - | MIC80 | 10 µM
O=C(O)c1ccccc1O | - | - | - | 200 µM | 7800 | inhibition | 35%
Cc1nc(N)sc1N=Nc1ccc(Cl)cc1 | BACTEC | - | - | - | H37Rv | MIC bound | >12.5 µg/mL
O=c1oc2ccc(-c3ccccc3)cc2c(O)c1N=Nc1cccc(F)c1Cl | resazurin | - | - | - | H37Rv | MIC | <6.25 µg/mL
COc1ccc2c(c1)[n+]([O-])c(S(=O)(=O)c1ccc(C)cc1)c(N)[n+]2[O-] | - | - | - | - | EMB-R | MIC | >12.5 µg/mL
O=c1[nH]c(=O)n(COCCO)cc1I | - | - | - | - | H37Ra | EC50 | >100 µg/mL
O=C(N/N=C/c1ccc(Cl)cc1Cl)C(O)C(O)C(O)C(O)CO | BACTEC | - | - | - | H37Rv | MIC bound | >12.5 µg/mL
CC(=O)/C=C(/C)[O-].CNC([S-])N/N=C(\C)c1ccccn1.[O]=[V+2] | resazurin | - | - | - | H37Rv (ATCC 27294) | MIC | 3.9 µg/mL
CC(=O)N=C1N(/C=C2/C(=O)Oc3ccccc3C2=O)C(=O)/C(=C\c2ccco2)N1C | BACTEC | - | - | 12.5 µg/mL | H37Rv | inhibition | 21%
COC(=O)c1ccc(OC(=O)/C=C/c2ccc(O)c(OC)c2)c(O)c1 | resazurin | - | - | 6.25 µg/mL | ATCC 27294 | inhibition | 28%
Cc1ccc(S(=O)(=O)NC(=O)NC2=NC(C)(C)N(c3ccc(Cl)c(Cl)c3)C(N)=N2)cc1 | BACTEC | - | - | - | H37Rv | MIC bound | >12.5 µg/mL
O=c1[nH]c2ccc(C(F)(F)F)cc2nc1C(F)(F)F | - | - | - | 12.5 µg/mL | - | inhibition | inactive
CC1(C)C=Cc2c(ccc3c(=O)c(-c4ccc5c(c4)OCO5)coc23)O1 | BACTEC | - | - | 12.5 µg/mL | H37Rv | inhibition | 3%
N/C(=N\N=C\c1ccccc1)c1ccncc1 | - | - | - | - | H37Rv | MIC | 16 µg/mL

Repeating the final 9 entries:

smiles	method	changes	cell line	tested at	strain	endpoint	value
O=c1[nH]c(=O)n(COCCO)cc1I	-	-	-	-	H37Ra	EC50	>100 µg/mL
O=C(N/N=C/c1ccc(Cl)cc1Cl)C(O)C(O)C(O)C(O)CO	BACTEC	-	-	-	H37Rv	MIC bound	>12.5 µg/mL
CC(=O)/C=C(/C)[O-].CNC([S-])N/N=C(\C)c1ccccn1.[O]=[V+2]	resazurin	-	-	-	H37Rv (ATCC 27294)	MIC	3.9 µg/mL
CC(=O)N=C1N(/C=C2/C(=O)Oc3ccccc3C2=O)C(=O)/C(=C\c2ccco2)N1C	BACTEC	-	-	12.5 µg/mL	H37Rv	inhibition	21%
COC(=O)c1ccc(OC(=O)/C=C/c2ccc(O)c(OC)c2)c(O)c1	resazurin	-	-	6.25 µg/mL	ATCC 27294	inhibition	28%
Cc1ccc(S(=O)(=O)NC(=O)NC2=NC(C)(C)N(c3ccc(Cl)c(Cl)c3)C(N)=N2)cc1	BACTEC	-	-	-	H37Rv	MIC bound	>12.5 µg/mL
O=c1[nH]c2ccc(C(F)(F)F)cc2nc1C(F)(F)F	-	-	-	12.5 µg/mL	-	inhibition	inactive
CC1(C)C=Cc2c(ccc3c(=O)c(-c4ccc5c(c4)OCO5)coc23)O1	BACTEC	-	-	12.5 µg/mL	H37Rv	inhibition	3%
N/C(=N\N=C\c1ccccc1)c1ccncc1	-	-	-	-	H37Rv	MIC	16 µg/mL